Anti-infective test results gathered from many reports (values: NIAID ChemDB through PubChem).

Common to all: cytotoxicity tests; cells: MDCK; read-out: CC50

a–b is a range or a potency band.

structure | value
CC1(C)C[C@H](O)C[C@](C)(CNC(=S)c2cccc(C(F)(F)F)c2)C1 | 5 µg/mL
CC(C)N1C2CCC23CC[C@H](NC(=O)c2cc(Cl)ccc2O)CC13 | 100 µg/mL
COc1ccccc1C(=S)NC[C@@]1(C)C[C@H](O)CC(C)(C)C1 | 43 µg/mL
Nc1nc(Cl)c(N)c(NCC2(CO)CCC2)n1 | 18–20 µM
CCC(C)N1C2CCC23CC[C@H](NC(=O)c2cc(C)ccc2O)CC13 | 100 µg/mL
CC#Cc1cn([C@@H]2O[C@H](COP(=O)(O)Oc3ccccc3Cl)[C@@H](O)[C@@H]2O)c(=O)[nH]c1=O | 305 µM
Cc1ccc(O)c(C(=O)NCCN2[C@@H](C)CC[C@@H]3CCCC[C@@H]32)c1 | >100 µg/mL
CCOC(=O)c1cc(CC(=O)c2ccccc2)c(=O)n2c1oc1ccccc12 | 40 µg/mL
CC1(C)C[C@@H](O)C[C@](C)(CNC(=S)c2ccccc2O)C1 | 40 µg/mL
CCOC(=O)c1cc(NC(=O)c2ccccc2)c(=O)n2c1[nH]c1ccccc12 | 40 µg/mL
Nc1nc(Cl)cc(NCC2(CO)CC(=O)C2)n1 | >390 µM
CC#Cc1cn([C@@H]2O[C@H](COP(=O)(OCC)Oc3ccccc3)[C@@H](O)[C@@H]2O)c(=O)[nH]c1=O | >500 µM
Cc1cc(C)cc(C(=S)NC[C@@]2(C)C[C@H](O)CC(C)(C)C2)c1 | 18 µg/mL
C[C@@H]1CCC[C@H](C)N1CCNC(=O)c1cc(Cl)ccc1O | 30 µg/mL
N#Cc1cc(C#N)c2[nH]c3ccccc3n2c1=O | 77 µg/mL
CC1=CC(=O)C=C(C/C=C(\C)CC/C=C(\C)CC/C=C(\C)CC[C@@H](C)C(C)(C)O)C1=O | 32 µM
COc1cc(NCC2(CO)CCC2)nc(N)n1 | 42–100 µM
O=C(NCCN1CCC[C@@H]2CCCC[C@@H]21)c1cc(Cl)ccc1O | 43 µg/mL
Nc1nc(Cl)c(C=O)c(NCC2(CO)CC(CCc3ccccc3)C2)n1 | 9.6–12 µM
N#Cc1cc(NC(=O)c2ccccc2)c(=O)n2c1[nH]c1ccccc12 | 10 µg/mL
Nc1nc(Cl)cc(NCC2(CO)CCC(OCc3ccccc3)C2)n1 | 0.99–2.5 µM
CCC(C)N1C2CCC23CC[C@H](NC(=O)c2cc(Cl)ccc2O)CC13 | 100 µg/mL
CC(C)CS[C@@H]1C=C[C@H](n2cnc3c(N)ncnc32)C1 | 50 µg/mL
Cc1ccc(C)c(C(=S)NC[C@@]2(C)C[C@@H](O)CC(C)(C)C2)c1 | 30 µg/mL
O=C(Cc1cnc2[nH]c3ccccc3n2c1=O)c1ccccc1 | 40 µg/mL
CC1(C)C[C@@H](O)C[C@](C)(CNC(=O)c2cc(Cl)ccc2O)C1 | >100 µg/mL
Nc1nc(Cl)cc(NCC2(CO)CC(OCc3ccccc3)C2)n1 | 1.7–4.3 µM
CC(=O)c1cc(NC(=O)c2ccccc2)c(=O)n2c1[nH]c1ccccc12 | 40 µg/mL
CC1(C)C[C@@H](O)C[C@](C)(CNC(=S)c2cc(Cl)ccc2O)C1 | 4 µg/mL
Nc1nc(Cl)cc(NCC2(CO)CCC2)n1 | 33–58 µM
Cc1ccc(O)c(C(=O)N[C@@H]2CCC34CCC3N(C)C4C2)c1 | 100 µg/mL
Cc1ccc(O)c(C(=S)NC[C@@]2(C)C[C@H](O)CC(C)(C)C2)c1 | 20 µg/mL
CC#Cc1cn([C@@H]2O[C@H](COP(=O)(O)OCCCCCCCCCCCC)[C@@H](O)[C@@H]2O)c(=O)[nH]c1=O | 131 µM

CCn is the concentration with n% toxicity to the cells. Rows are shuffled and stem from different studies.